A mixed list of measured activities; the numbers were collected in NIAID ChemDB.

Common to all: enzyme or target tests; agent: HIV-1; target: Integrase; read-out: IC50

Two numbers with a dash give a range or band. An empty or dashed field is not shown. ICn is the concentration giving n% inhibition. Lines come from different laboratories, so protocols vary.

{"SMILES": "COC(=O)c1c(C)c2c(c(C)c1O)OC(=O)c1c(C)cc(O)c(C=O)c1O2", "method": "disintegration", "value": "25 µM"}
{"SMILES": "O=C1C(=O)c2ccccc2C(O)=C1CSc1ccc(Cl)cc1", "method": "3′ processing", "value": ">100 µM"}
{"SMILES": "Nc1ccn(C2CC(O)C(COP(=O)(O)OC3CC(n4ccc(N)nc4=O)OC3COP(=O)(O)O)O2)c(=O)n1", "method": "strand transfer", "value": "12 µM"}
{"SMILES": "O=C1Cc2ccccc2C(=O)N1O", "method": "ELISA", "value": "6.32 µM"}
{"SMILES": "O=C1c2ccc(O)c(O)c2C(=O)N1Cc1cccc(CO)c1", "method": "3′ processing", "value": "38 µM"}
{"SMILES": "O=C(Nc1ccc(C(=O)O)c(O)c1)c1ccc(C(=O)Nc2ccc(O)c(C(=O)O)c2)cc1", "method": "strand transfer", "value": "38.6–45.8 µM"}
{"SMILES": "O=C(O)C(=O)/C=C(\\O)c1ccc(O)c(O)c1", "method": "3′ processing", "value": "3.9 µM"}
{"SMILES": "O=C(N[C@H](Cc1ccc(O)c(O)c1)C(=O)OCc1ccccc1)c1ccc([N+](=O)[O-])cc1", "method": "strand transfer", "value": "31.3–45.8 µM"}
{"SMILES": "Cc1cn(C2CC(OP(=O)(O)OCC3OC(n4ccc(N)nc4=O)CC3O)C(COP(=O)(O)O)O2)c(=O)[nH]c1=O", "method": "3′ processing", "value": "35 µM"}
{"SMILES": "COC(=O)C(=O)/C=C(\\O)c1ccc2cc(O)c(O)cc2c1", "method": "strand transfer", "value": "3.7 µM"}
{"SMILES": "O=C(/C=C/c1ccc(O)c(O)c1)O[C@@H]1CC(O)(C(=O)O)C[C@@H](OC(=O)/C=C/c2ccc(O)c(O)c2)C1O", "method": "3′ processing", "value": "0.33 µg/mL"}
{"SMILES": "Cc1cn(C2CC(O)C(COP(=O)(O)OC3CC(n4cc(C)c(=O)[nH]c4=O)OC3COP(=O)(O)O)O2)c(=O)[nH]c1=O", "method": "strand transfer", "value": "53 µM"}
{"SMILES": "COC(=O)C(=O)OC1(C(=O)O)C[C@@H](OC(=O)/C=C/c2ccc(O)c(O)c2)C(O)[C@H](OC(=O)/C=C/c2ccc(O)c(O)c2)C1", "method": "disintegration", "value": "0.57 µg/mL"}
{"SMILES": "Nc1ccn(C2CC(OP(=O)(O)OCC3OC(n4cnc5c(N)ncnc54)CC3OP(=O)(O)OCC3OC(n4cnc5c(=O)[nH]c(N)nc54)CC3O)C(CO)O2)c(=O)n1", "method": "strand transfer", "value": "53 µM"}
{"SMILES": "O=C1c2c(ccc(O)c2O)CN1Cc1ccc(F)cc1", "method": "strand transfer", "value": "10 µM"}
{"SMILES": "Nc1ccn(C2CC(OP(=O)(O)OCC3OC(n4cnc5c(N)ncnc54)CC3OP(=O)(O)OCC3OC(n4cnc5c(N)ncnc54)CC3O)C(COP(=O)(O)O)O2)c(=O)n1", "method": "3′ processing", "value": "42 µM"}
{"SMILES": "c1nc(SSc2ncnc3nc[nH]c23)c2[nH]cnc2n1", "method": "3′ processing", "value": ">250 µM"}
{"SMILES": "CCOC(=O)c1c(-c2ccccc2)nc(=O)n(Cc2ccc(Cc3cccc(/C(O)=C/C(=O)C(=O)O)c3)cc2)c1CC", "method": "3′ processing / radiometric", "value": "22.5 µM"}
{"SMILES": "CC(=O)C(N=Nc1ccc(S(=O)(=O)Nc2ccccn2)cc1)C(=O)Nc1ccccc1C", "setting": "Mn2+", "method": "3′ processing", "value": "78 µM"}
{"SMILES": "O=c1oc2ccccc2c(O)c1C(c1ccccc1)c1c(O)c2ccccc2oc1=O", "method": "3′ processing", "value": "43 µM"}
{"SMILES": "O=C(NNC1=Nc2ccccc2C(c2ccccc2)=NC1)c1cnccn1", "method": "strand transfer", "value": "2–3 µM"}
{"SMILES": "CS(=O)(=O)CS(=O)(=O)Nc1ccccc1CN1Cc2ccc(O)c(O)c2C1=O", "method": "3′ processing", "value": ">333 µM"}
{"SMILES": "COC(=O)Nc1cc2c(cc1[N+](=O)[O-])OCCOCCOCCOCCO2", "method": "3′ processing", "value": ">250 µM"}
{"SMILES": "O=C1c2cccc(O)c2C(=O)c2c(O)cccc21", "method": "disintegration", "value": ">40 µM"}
{"SMILES": "Nc1ccn([C@H]2C[C@H](O)[C@@H](COP(=O)(O)O[C@H]3C[C@H](n4cnc5c(N)ncnc54)O[C@@H]3COP(=O)(O)O)O2)c(=O)n1", "method": "strand transfer", "value": "3 µM"}
{"SMILES": "N=C1/C(=C/c2ccccc2O)C(=O)NN1C(=O)c1ccncc1", "method": "3′ processing", "value": ">250 µM"}
{"SMILES": "COc1ccc(/C(O)=C/C(=O)C(=O)O)cc1OC", "method": "strand transfer", "value": "29.9 µM"}
{"SMILES": "O=C(NO)c1ccc(O)c(O)c1", "method": "strand transfer", "value": "176–182.2 µM"}
{"SMILES": "O=C1NC(=O)c2c1ccc(O)c2O", "method": "3′ processing", "value": ">333 µM"}
{"SMILES": "O=c1oc2ccccc2c(O)c1C(c1ccc(C(c2c(O)c3ccccc3oc2=O)c2c(O)c3ccccc3oc2=O)cc1)c1c(O)c2ccccc2oc1=O", "method": "3′ processing", "value": "1.1 µM"}
{"SMILES": "O=C(OCC1OCOC(COC(=O)c2ccccc2)C(O)C1O)c1ccccc1", "setting": "Mg2+", "method": "3′ processing", "value": ">200 µM"}
{"SMILES": "COC(=O)C(=O)OC1(C(=O)O)C[C@@H](OC(=O)/C=C/c2ccc(O)c(O)c2)C(O)[C@H](OC(=O)/C=C/c2ccc(O)c(O)c2)C1", "strain or isolate": "LAI", "value": "0.84 µM"}
{"SMILES": "COc1ccc(NC(=O)C/C(C)=N/N=C(N)N)c([N+](=O)[O-])c1", "setting": "Mg2+", "method": "3′ processing", "value": ">200 µM"}
{"SMILES": "O=c1oc2ccccc2c(O)c1Cc1c(O)c2ccccc2oc1=O", "method": "3′ processing", "value": ">100 µM"}
{"SMILES": "Nc1ccn(C2CC(O)C(COP(=O)(O)OC3CC(n4cnc5c(=O)[nH]c(N)nc54)OC3COP(=O)(O)O)O2)c(=O)n1", "method": "strand transfer", "value": "100 µM"}
{"SMILES": "Cc1cc(O)c2c(c1)C(=O)C(c1c(C)cc3c(c1O)C(=O)C1OC1C3=O)=CC2=O", "method": "3′ processing", "value": "3.6 µM"}
{"SMILES": "CC(=O)Oc1ccc(/C=C/C(=O)O[C@@H](C(=O)O)[C@@H](OC(=O)/C=C/c2ccc(OC(C)=O)c(OC(C)=O)c2)C(=O)O)cc1OC(C)=O", "strain or isolate": "IIIB", "method": "strand transfer", "value": ">78 µM"}
{"SMILES": "CC(=O)Oc1cc(OC(C)=O)c2c(c1)C(=O)c1cc(C)cc(OC(C)=O)c1C2=O", "setting": "Mn2+", "method": "3′ processing", "value": ">200 µM"}
{"SMILES": "C=C(C)[C@@H]1CCC2[C@]3(CC[C@]4(C)[C@@H]([C@H](C)CC/C=C(/C)C(=O)O)CC[C@@]24C)C[C@]13CCC(=O)O", "method": "binding / fluorescence", "value": "2.8 µM"}
{"SMILES": "CC(=O)NCCSS(=O)(=O)CCCCS(=O)(=O)SCCNC(C)=O", "method": "strand transfer", "value": ">200 µM"}
{"SMILES": "N#C/C(=C\\c1ccc(O)c(O)c1)C(N)=O", "method": "disintegration", "value": ">40 µM"}
{"SMILES": "COc1c(-c2ccc(O)c(O)c2)oc2c(O)c(O)cc(O)c2c1=O", "method": "3′ processing", "value": "0.7 µM"}
{"SMILES": "O=C(O)C(=O)/C=C(\\O)c1ccc2ccccc2c1", "method": "3′ processing", "value": ">100 µM"}
{"SMILES": "O=S(=O)(O)c1cc(O)c(N=NC2S(=O)(=O)OCCOS2(=O)=O)c2ccccc12", "setting": "Mn2+", "method": "3′ processing", "value": ">200 µM"}
{"SMILES": "Cc1cn(C2CC(O)C(COP(=O)(O)OC3CC(n4cnc5c(N)ncnc54)OC3COP(=O)(O)OC3CC(n4ccc(N)nc4=O)OC3COP(=O)(O)O)O2)c(=O)[nH]c1=O", "method": "3′ processing", "value": ">100 µM"}
{"SMILES": "O=C1c2c(ccc(O)c2O)CN1Cc1ccc(F)c(Cl)c1", "method": "strand transfer", "value": "0.16 µM"}
{"SMILES": "COC(=O)C(=O)c1c(C(=O)OC)nc2nnc(N)n2c1-c1ccc(O)c(OC)c1", "method": "3′ processing", "value": "48 µM"}
{"SMILES": "Cc1cn(C2CC(OP(=O)(O)OCC3OC(n4cnc5c(N)ncnc54)CC3O)C(COP(=O)(O)O)O2)c(=O)[nH]c1=O", "method": "strand transfer", "value": "18 µM"}
{"SMILES": "O=C(O)c1cc(N=Nc2ccc(S(=O)(=O)Nc3ccccn3)cc2)ccc1O", "value": "250 µM"}
{"SMILES": "CC(O)C(NC(=O)C(Cc1ccc(O)cc1)NC(=O)OCc1ccccc1)C(=O)O", "method": "strand transfer", "value": "5.3–12.3 µM"}
{"SMILES": "O=C1c2ccc(O)c(O)c2C(=O)N1Cc1cccc(Cl)c1", "method": "strand transfer", "value": "0.38 µM"}
{"SMILES": "O=C(/C=C/c1ccc(O)c(O)c1)O[C@@H]1C[C@](OC(=O)/C=C/c2ccc(O)c(O)c2)(C(=O)O)C[C@@H](O)[C@H]1O", "strain or isolate": "LAI", "value": "0.47 µM"}
{"SMILES": "O=C1c2c(ccc(O)c2O)CN1Cc1cccc(Cl)c1", "method": "strand transfer", "value": "3.5 µM"}
{"SMILES": "CCCCCCc1cc2c(O)c(C(c3ccccc3)c3c(O)c4cc(CCCCCC)c(O)cc4oc3=O)c(=O)oc2cc1O", "method": "3′ processing", "value": "10.5 µM"}
{"SMILES": "O=C1c2c(ccc(O)c2O)CN1Cc1cc(F)cc(F)c1", "method": "strand transfer", "value": "0.33 µM"}
{"SMILES": "O=C(O)c1c[nH]c2c([N+](=O)[O-])cccc2c1=O", "method": "strand transfer", "value": "16.7–23.4 µM"}
{"SMILES": "O=C1c2ccc(O)c(O)c2C(=O)N1Cc1cccc(I)c1", "method": "strand transfer", "value": "1.1 µM"}
{"SMILES": "CC(=O)Oc1ccc(/C=C/C(=O)O[C@@H](C(=O)O)[C@@H](OC(=O)/C=C/c2ccc(OC(C)=O)c(OC(C)=O)c2)C(=O)O)cc1OC(C)=O", "method": "strand transfer", "value": "<5 µM"}

For reference, 8 entries again:

SMILES | setting | strain or isolate | method | value
COc1ccc(NC(=O)C/C(C)=N/N=C(N)N)c([N+](=O)[O-])c1 | Mg2+ | - | 3′ processing | >200 µM
O=C1c2cccc(O)c2C(=O)c2c(O)cccc21 | - | - | disintegration | >40 µM
O=C(N[C@H](Cc1ccc(O)c(O)c1)C(=O)OCc1ccccc1)c1ccc([N+](=O)[O-])cc1 | - | - | strand transfer | 31.3–45.8 µM
CC(=O)Oc1ccc(/C=C/C(=O)O[C@@H](C(=O)O)[C@@H](OC(=O)/C=C/c2ccc(OC(C)=O)c(OC(C)=O)c2)C(=O)O)cc1OC(C)=O | - | - | strand transfer | <5 µM
COC(=O)C(=O)OC1(C(=O)O)C[C@@H](OC(=O)/C=C/c2ccc(O)c(O)c2)C(O)[C@H](OC(=O)/C=C/c2ccc(O)c(O)c2)C1 | - | LAI | - | 0.84 µM
O=c1oc2ccccc2c(O)c1C(c1ccc(C(c2c(O)c3ccccc3oc2=O)c2c(O)c3ccccc3oc2=O)cc1)c1c(O)c2ccccc2oc1=O | - | - | 3′ processing | 1.1 µM
O=C(NO)c1ccc(O)c(O)c1 | - | - | strand transfer | 176–182.2 µM
COc1c(-c2ccc(O)c(O)c2)oc2c(O)c(O)cc(O)c2c1=O | - | - | 3′ processing | 0.7 µM